Pooled drug test results. Numbers come from NIAID ChemDB, via PubChem.

Common to all: tests on isolated targets

Two numbers with a dash give a range or band. ICn is the concentration giving n% inhibition. Lines come from different laboratories, so protocols vary. Blank or dashed fields: not listed here. Percent inhibition refers to the dose given; in toxicity tests it is the harm to the cells.

SMILES	dose	target	agent	read-out	method	result
Cn1cccc1-c1nc2cc(C(=O)NC3(C(=O)Nc4ccc(/C=C/C(=O)O)cc4)CCCC3)ccc2n1C1CCCCC1	-	NS5B polymerase	Hepatitis C virus	IC50	-	<0.5 µM
COc1nc(Nc2ccc3[nH]ncc3c2)nc(N2CCOCC2)n1	-	DNA polymerase	Hepatitis B virus	IC50	-	0.1 µg/mL
O=C(Nc1ccc2cn[nH]c2c1)c1cc(NCCO)c(F)cc1F	1 µg/mL	Reverse transcriptase	Hepatitis B virus	inhibition	-	53%
C[C@@H](NC(=O)c1ccc2c(c1)nc(-c1ccccc1)n2C1CCCCC1)C(=O)Nc1ccc(/C=C/C(=O)O)cc1	-	NS5B polymerase	Hepatitis C virus	IC50	-	0.5–5 µM
O=C(/C=C/CCC(=O)Nc1ccc(-c2nc3ccccc3[nH]2)cc1)Nc1ccc(-c2nc3ccccc3[nH]2)cc1	-	Nonstructural protein 3 NTPase/helicase	Hepatitis C virus	IC50	-	0.7 µM
CNC(=O)c1c(-c2ccc(F)cc2F)oc2cc(-c3c(C)noc3C)c(OC)cc12	-	Nonstructural protein 5B	Hepatitis C virus	IC50	-	≤0.5 µM
COc1nc(Nc2ccc3cn[nH]c3c2)nc(-n2ccnc2)n1	1 µg/mL	DNA polymerase	Hepatitis B virus	inhibition	-	78%
CCNc1cccnc1N1CCN(C(=O)c2ccc(C(=O)NC(C)(C)CO)cn2)CC1	-	Reverse transcriptase	Hepatitis B virus	IC50	-	0.068 µg/mL
O=C(O)c1cc2nccc(-c3ccccc3-c3ccccc3Oc3ccccc3)n2n1	-	RNA-dependent RNA polymerase	Hepatitis C virus	IC50	-	>10 µM
COCCCNC(=O)c1ccc(C(=O)N2CCN(c3ncccc3NCC(C)C)CC2)nc1	-	Reverse transcriptase	Hepatitis B virus	IC50	-	0.123 µg/mL
O=C(Nc1ccc2cn[nH]c2c1)c1cc(NCCN2CCOCC2)c(F)cc1F	0.1 µg/mL	Reverse transcriptase	Hepatitis B virus	inhibition	-	36%
CC(NC(=O)c1ccc2c(c1)nc(-c1ccoc1)n2C1CCCCC1)C(=O)Nc1cccc(-c2cccc(N)c2)c1	-	NS5B polymerase	Hepatitis C virus	IC50	-	0.5–5 µM
O=C(NCCc1ccccn1)Nc1cscc1-c1nc(C(=O)O)c(O)c(=O)[nH]1	-	HCV polymerase	Hepatitis C virus	IC50	-	<25 µM
CCOC(=O)N1CCN(c2nc(Nc3ccc4[nH]ncc4c3)nc(OC)n2)CC1	0.1 µg/mL	DNA polymerase	Hepatitis B virus	inhibition	-	23%
O=C(NCc1ccccc1)Nc1ccccc1-c1nc(C(=O)O)c(O)c(=O)[nH]1	-	HCV polymerase	Hepatitis C virus	IC50	-	<100 µM
CCNc1cccnc1N1CCN(C(=O)c2ccc(C(=O)NCCO)cn2)CC1	-	Reverse transcriptase	Hepatitis B virus	IC50	-	0.007 µg/mL
O=C(O)c1nc(-c2cccc(OCc3c(Cl)cccc3Cl)c2)[nH]c(=O)c1O	-	HCV polymerase	Hepatitis C virus	IC50	-	<100 µM
O=C(O)/C=C/c1ccc(NC(=O)C2(NC(=O)c3ccc4c(c3)nc(-c3ccoc3)n4C3CCCCC3)CCNCC2)cc1	-	NS5B polymerase	Hepatitis C virus	IC50	-	<0.5 µM
O=C(N[C@@H](Cc1cc2ccccc2[nH]1)C(=O)O)c1cc2nc(OCc3ccccc3)c(CC3CCCCC3)c(=O)n2[nH]1	-	RNA-dependent RNA polymerase	Hepatitis C virus	IC50	-	<1 µM
O=C(O)c1ccc2c(c1)nc(-c1ccc3nc(-c4cn(-c5cccnc5Cl)c(=O)[nH]c4=O)ccc3c1)n2C1CCCCC1	33 µM	NS5B polymerase	Hepatitis C virus	inhibition	-	95.34%
O=C(O)c1cccc(COc2ccc(-c3cnc4c(-c5nn[nH]n5)cnn4c3C3CCCCC3)cc2)c1	-	RNA-dependent RNA polymerase	Hepatitis C virus	IC50	-	1–10 µM
O=C(Nc1ccc2[nH]ncc2c1)c1cc(NCCCn2ccnc2)c(F)cc1F	0.01 µg/mL	Reverse transcriptase	Hepatitis B virus	inhibition	-	48%
CC(C)(CO)NC(=O)c1ccc(C(=O)N2CCN(c3ncccc3N)CC2)nc1	-	Reverse transcriptase	Hepatitis B virus	IC50	-	0.038 µg/mL
CNC(=O)c1c(-c2ccc(F)cc2)oc2cc(N(C)CCOC)c(OC(C)C)cc12	-	Nonstructural protein 5B	Hepatitis C virus	IC50	-	≤0.5 µM
COc1nc(Nc2ccc3cn[nH]c3c2)nc(N2CCN(CCO)CC2)n1	10 µg/mL	Nonstructural protein 5B	Hepatitis C virus	inhibition	-	83%
CNC(=O)c1c(-c2ccc(F)cc2)oc2cc(C)c(OC)cc12	-	Nonstructural protein 5B	Hepatitis C virus	IC50	-	≤0.5 µM
COc1nc(NCCCn2ccnc2)nc(Nc2ccc3[nH]ncc3c2)n1	10 µg/mL	Nonstructural protein 5B	Hepatitis C virus	inhibition	-	72%
CS(=O)c1nc2ccc(NC(=O)C3(NC(=O)c4ccc5c(c4)nc(-c4ccoc4)n5C4CCCCC4)CCCC3)cc2s1	-	NS5B polymerase	Hepatitis C virus	IC50	-	5–25 µM
O=C(Cc1cccc2ccccc12)Nc1cscc1-c1nc(C(=O)O)c(O)c(=O)[nH]1	-	HCV polymerase	Hepatitis C virus	IC50	-	<25 µM
C[C@@H](NC(=O)c1ccc2c(c1)nc(-c1ccoc1)n2C1CCCCC1)C(=O)Nc1cccc(-c2ccc(C(=O)O)o2)c1	-	NS5B polymerase	Hepatitis C virus	IC50	-	<0.5 µM
CNC(=O)c1c(-c2ccc(F)cc2)oc2cc(-c3c(C)noc3COC)c(OC)cc12	-	Nonstructural protein 5B	Hepatitis C virus	IC50	-	≤0.5 µM
C=C[C@@H]1C[C@]1(NC(=O)c1ccc2c(c1)nc(-c1ccoc1)n2C1CCCCC1)C(=O)Nc1ccc(/C=C/C(=O)O)cc1	-	NS5B polymerase	Hepatitis C virus	IC50	-	<0.5 µM
COc1ccc(S(=O)(=O)NC(=O)Nc2cscc2-c2nc(C(=O)O)c(O)c(=O)[nH]2)cc1	-	HCV polymerase	Hepatitis C virus	IC50	-	<25 µM
CCOC(=O)/C=C/c1ccc(NC(=O)C2(NC(=O)c3ccc4c(c3)nc(-c3ccoc3)n4C3CCCCC3)CCCC2)cc1	-	NS5B polymerase	Hepatitis C virus	IC50	-	5–25 µM
O=C(O)c1ccc2nc(-c3ccc4nc(-c5ccccc5-c5ccc(Cl)cc5)ccc4c3)[nH]c2c1	100 µM	NS5B polymerase	Hepatitis C virus	inhibition	-	67.52%
NS(=O)(=O)c1ccc(CCNc2cc(C(=O)Nc3ccc4cn[nH]c4c3)c(F)cc2F)cc1	0.01 µg/mL	Reverse transcriptase	Hepatitis B virus	inhibition	-	39%
O=C(O)c1ccc2c(c1)nc(-c1ccc3nc(-c4cc(Br)ccc4O)ccc3c1)n2C1CCCCC1	100 µM	NS5B polymerase	Hepatitis C virus	inhibition	-	101%
COc1nc(NCCCN2CCCC2=O)nc(Nc2ccc3[nH]ncc3c2)n1	0.1 µg/mL	DNA polymerase	Hepatitis B virus	inhibition	-	27%
CC(Cc1ccccn1)Nc1cc(C(=O)Nc2ccc3cn[nH]c3c2)c(F)cc1F	0.1 µg/mL	Reverse transcriptase	Hepatitis B virus	inhibition	-	35%
CNC(=O)c1c(-c2ccc(F)cc2)oc2cc(Br)c(OC)cc12	-	Nonstructural protein 5B	Hepatitis C virus	IC50	-	≤0.5 µM
CC(C)(C)COC(=O)Nc1ccsc1-c1nc(C(=O)O)c(O)c(=O)[nH]1	-	HCV polymerase	Hepatitis C virus	IC50	-	<25 µM
O=C(Nc1ccc2cn[nH]c2c1)c1cc(NCCc2ccccn2)c(F)cc1F	1 µg/mL	Reverse transcriptase	Hepatitis B virus	inhibition	-	68%
COc1nc(Nc2ccc3[nH]ncc3c2)nc(N2CCC(O)CC2)n1	1 µg/mL	Nonstructural protein 5B	Hepatitis C virus	inhibition	-	12%
O=C(NCc1ccc2c(c1)CCO2)Nc1cscc1-c1nc(C(=O)O)c(O)c(=O)[nH]1	-	HCV polymerase	Hepatitis C virus	IC50	-	<25 µM
CC(C)CNc1cc(C(=O)Nc2ccc3cn[nH]c3c2)c(F)cc1F	1 µg/mL	Reverse transcriptase	Hepatitis B virus	inhibition	-	42%
CCOC(=O)C1CCN(c2nc(Nc3ccc4[nH]ncc4c3)nc(OC)n2)CC1	10 µg/mL	Nonstructural protein 5B	Hepatitis C virus	inhibition	-	44%
c1ccc(COc2ccc(-c3c(-c4ccccc4)cnc4c(-c5nn[nH]n5)cnn34)cc2)cc1	-	RNA-dependent RNA polymerase	Hepatitis C virus	IC50	-	>10 µM
O=C(NC(Cc1c[nH]c2ccc(O)cc12)C(=O)O)c1ccc2c(c1)nc(-c1ccc3cc(-c4ccccc4)cnc3c1)n2C1CCCCC1	33 µM	NS5B polymerase	Hepatitis C virus	inhibition	-	99.3%
CC(C)CNc1cccnc1N1CCN(C(=O)c2ccc(C(=O)NC(C)(C)CO)cn2)CC1	-	Reverse transcriptase	Hepatitis B virus	IC50	-	0.001 µg/mL
COc1cc(/C=N/Nc2cc(C)nc3c(OC)cccc23)cc(OC)c1OC	-	Nonstructural protein 3 protease	Hepatitis C virus	IC50	-	>100 µg/mL
O=C(c1ccccc1)N1CCC2(CCCN(c3ncc(Br)c(-c4ccc(Cl)cc4)n3)C2)CC1	-	Nonstructural protein 4B	Hepatitis C virus	IC50	radioligand binding / binding	0.0529 µM
Cc1ccc(S(=O)(=O)Nc2ccccc2-c2nc(C(=O)O)c(O)c(=O)[nH]2)cc1	-	HCV polymerase	Hepatitis C virus	IC50	-	<100 µM
O=C(Nc1ccc2[nH]ncc2c1)c1cc(NCCN2CCCC2)c(F)cc1F	0.01 µg/mL	Reverse transcriptase	Hepatitis B virus	inhibition	-	49%
O=C(O)c1ccc2c(c1)nc(-c1ccc3nccc(NCCCCO)c3c1)n2C1CCCCC1	33 µM	NS5B polymerase	Hepatitis C virus	inhibition	-	59.65%
CCCCCCCCCCCCCC1=C(O)C(=O)C=C(O)C1=O	-	Nonstructural protein 3 protease	Hepatitis C virus	IC50	-	7 µM
c1cc(-c2cnc3c(-c4nn[nH]n4)cnn3c2C2CCCCC2)ccc1OC1CCCC1	-	RNA-dependent RNA polymerase	Hepatitis C virus	IC50	-	1–10 µM
C[C@H](NC(=O)c1ccc2cc(-c3nc4cc(C(=O)O)ccc4n3C3CCCCC3)ccc2n1)C(N)=O	33 µM	NS5B polymerase	Hepatitis C virus	inhibition	-	65.45%
O=c1c(O[C@@H]2O[C@H](CO)[C@@H](O)[C@H](O)[C@H]2O)c(-c2ccc(O)c(O)c2)oc2cc(O)cc(O)c12	-	Nonstructural protein 3 protease	Hepatitis C virus	IC50	-	<100 µM
O=C(c1ccc2[nH]ccc2c1)N1CCC2(CCCN(c3ncc(-c4ccccc4)c(-c4ccc(Cl)cc4)n3)C2)CC1	-	Nonstructural protein 4B	Hepatitis C virus	IC50	radioligand binding / binding	0.0421 µM
O=C(O)c1cc(NC(=O)C2(NC(=O)c3ccc4c(c3)nc(-c3ccoc3)n4C3CCCCC3)CCCC2)cc(C(=O)O)c1	-	NS5B polymerase	Hepatitis C virus	IC50	-	0.5–5 µM

Again, the opening 4 rows:

| SMILES | dose | target | agent | read-out | method | result |
|---|---|---|---|---|---|---|
| Cn1cccc1-c1nc2cc(C(=O)NC3(C(=O)Nc4ccc(/C=C/C(=O)O)cc4)CCCC3)ccc2n1C1CCCCC1 | - | NS5B polymerase | Hepatitis C virus | IC50 | - | <0.5 µM |
| COc1nc(Nc2ccc3[nH]ncc3c2)nc(N2CCOCC2)n1 | - | DNA polymerase | Hepatitis B virus | IC50 | - | 0.1 µg/mL |
| O=C(Nc1ccc2cn[nH]c2c1)c1cc(NCCO)c(F)cc1F | 1 µg/mL | Reverse transcriptase | Hepatitis B virus | inhibition | - | 53% |
| C[C@@H](NC(=O)c1ccc2c(c1)nc(-c1ccccc1)n2C1CCCCC1)C(=O)Nc1ccc(/C=C/C(=O)O)cc1 | - | NS5B polymerase | Hepatitis C virus | IC50 | - | 0.5–5 µM |